Assay results reported in patent publication US7102020B2, “Total synthesis of daurichromenic acid” (priority 2002, dated 2006).
The source's definition of the ratio is not given here.

System: HIV
Experiment: anti-HIV activity in acutely infected H9 cells
Format: cell-based

## CC(C)=CCC/C(C)=C/CC[C@@]1(C)C=Cc2c(cc(C)c(C(=O)O)c2O)O1 [Daurichromenic acid]
  therapeutic index (TI): 3,710

## CC(C)=CCC[C@@]1(C)[C@@H]2CC[C@]3(C)Oc4cc(C)c(C(=O)O)c(O)c4[C@H]1[C@H]23 [Rhododaurichromanic acids A, rhododaurichromanic acids A]
  therapeutic index (TI): 91.9
